Compound potency records, mixed from different reports. Data source: NIAID ChemDB in PubChem.

Common to all: target-level tests; species: HIV-1; protein: Reverse transcriptase; read-out: fold resistance

Fold resistance: result on the changed form divided by that on wild type. Lines come from different laboratories, so protocols vary. Two numbers with a dash give a range or band.

{"SMILES": "Cc1c(Sc2ccccc2)n(COCCO)c(=O)[nH]c1=O", "mutations": "RT-K103N", "result": ">10"}
{"SMILES": "Cc1c(Cc2c(Cl)cccc2Cl)nc(SCc2cccc(C#N)c2)[nH]c1=O", "method": "nucleotide incorporation / radiometric", "mutations": "RT-K103N", "result": ">42"}
{"SMILES": "CC(C)(C)OC(=O)Cn1cnc2c(Oc3ccccc3[N+](=O)[O-])nc(NC(=O)OCc3ccccc3)nc21", "method": "nucleotide incorporation / radiometric", "mutations": "Y188L", "strain or isolate": "NNRTI-resistant", "result": "57"}
{"SMILES": "O=c1c2cccn2c2cccc(F)c2n1CCNC(=S)Nc1ccc(Br)cn1", "method": "nucleotide incorporation", "mutations": "RT-L100I", "result": "18.9"}
{"SMILES": "Cc1cn([C@H]2C=C[C@@H](COP(=O)(O)OP(=O)(O)OP(=O)(O)O)O2)c(=O)[nH]c1=O", "method": "nucleotide incorporation / radiometric", "mutations": "RT-M184V", "result": "0.68"}
{"SMILES": "CCN1c2ncc(CCOc3ccc(C(=O)O)c4c3CCCC4)cc2C(=O)N(C)c2cccnc21", "method": "nucleotide incorporation / radiometric", "mutations": "RT-Y188L", "result": ">10"}
{"SMILES": "CCOc1cccc(C2(CC)Oc3ccccc3-n3cccc3C2=O)c1", "method": "nucleotide incorporation / radiometric", "mutations": "RT-L100I", "result": "0.26"}
{"SMILES": "CC(C)=CCN1Cc2cc(Cl)cc3[nH]c(=O)n(c23)C[C@@H]1C", "method": "nucleotide incorporation / radiometric", "mutations": "RT-V106A", "result": "21"}
{"SMILES": "O=c1cnc2ccccc2n1CCNC(=S)Nc1ccc(Br)cn1", "method": "nucleotide incorporation", "mutations": "RT-L100I", "result": "10"}
{"SMILES": "Cc1c(Cc2ccc(F)cc2)nc(SCc2ccc([N+](=O)[O-])cc2)[nH]c1=O", "method": "nucleotide incorporation / radiometric", "mutations": "RT-K103N", "result": "~1"}
{"SMILES": "O=C1c2ccncc2C(=O)N1CCNC(=S)Nc1ccc(Br)cn1", "method": "nucleotide incorporation", "mutations": "RT-V106A", "result": "20.6"}
{"SMILES": "Nc1ncnc2c1ncn2[C@@H]1O[C@H](COP(=O)(O)OP(=O)(O)OP(=O)(O)O)C[C@@H]1F", "method": "nucleotide incorporation / radiometric", "mutations": "RT-L74V", "result": "3.65"}
{"SMILES": "Cc1c(Cc2c(Cl)cccc2Cl)nc(S(=O)(=O)Cc2ccc(Br)cc2)[nH]c1=O", "method": "nucleotide incorporation / radiometric", "mutations": "RT-K103N", "result": "~1"}
{"SMILES": "CCC1(c2cccc(Cl)c2)Cc2ccccc2-n2cccc2C1=O", "method": "nucleotide incorporation / radiometric", "mutations": "RT-K103N", "result": "3"}
{"SMILES": "Cc1cc(S(N)(=O)=O)ccc1NC(=O)COc1ccc(Cl)cc1C(=O)c1cc(Cl)cc(C#N)c1", "method": "fluorescence", "mutations": "RT-L100I", "result": "0.46"}
{"SMILES": "O=C(O)Cn1cnc2c(Oc3ccccc3[N+](=O)[O-])nc(NC(=O)OCc3ccccc3)nc21", "method": "nucleotide incorporation / radiometric", "mutations": "Y181I", "strain or isolate": "NNRTI-resistant", "result": "5"}
{"SMILES": "CCC1(c2ccc(I)cc2)Oc2ccccc2-n2cccc2C1=O", "method": "nucleotide incorporation / radiometric", "mutations": "RT-V106A", "result": "14.4"}
{"SMILES": "COc1ccc(/C=C/NC(=O)Nc2ccc(Cl)cn2)cc1OC", "method": "nucleotide incorporation", "mutations": "RT-K103N", "result": "2.86"}
{"SMILES": "C/C=C/CSc1cc(NC(=S)c2ccsc2C)ccc1Cl", "mutations": "RT-E138K", "result": "0.51"}
{"SMILES": "Nc1ncnc2c1ncn2[C@H]1CC[C@@H](COP(=O)(O)OP(=O)(O)OP(=O)(O)O)O1", "method": "nucleotide incorporation / radiometric", "mutations": "RT-T215Y", "result": "2.74"}
{"SMILES": "CCC1(c2ccc(CCc3ccccc3)cc2)Oc2ccccc2-n2cccc2C1=O", "method": "nucleotide incorporation / radiometric", "mutations": "RT-V106A", "result": ">58.8"}
{"SMILES": "Cc1cn([C@H]2C=C[C@@H](COP(=O)(O)OP(=O)(O)OP(=O)(O)O)O2)c(=O)[nH]c1=O", "mutations": "RT-Q161L H208Y", "result": "27"}
{"SMILES": "CCN1c2ncc(CCOc3ccc(C(=O)O)c4ccccc34)cc2C(=O)N(C)c2ccc(Cl)nc21", "method": "nucleotide incorporation / radiometric", "mutations": "RT-Y188L", "result": "1–10"}
{"SMILES": "COc1cc(CSc2nc(Cc3c(Cl)cccc3Cl)c(C)c(=O)[nH]2)cc(OC)c1", "method": "nucleotide incorporation / radiometric", "mutations": "RT-K103N", "result": ">1.56"}
{"SMILES": "Cc1ccc2c(c1)n(CCNC(=S)Nc1ccc(Br)cn1)c(=O)c1cccn12", "method": "nucleotide incorporation", "mutations": "RT-L100I", "result": "17.5"}
{"SMILES": "Nc1ccn([C@H]2C[C@H](O)[C@@H](COP(=O)(O)OP(=O)(O)OP(=O)(O)O)O2)c(=O)n1", "method": "nucleotide incorporation / radiometric", "mutations": "RT-L74V", "result": "0.42"}
{"SMILES": "CCC1(c2ccc(COc3cccnc3)cc2)Oc2ccccc2-n2cccc2C1=O", "method": "nucleotide incorporation / radiometric", "mutations": "RT-Y181I", "result": "10"}
{"SMILES": "CC(C)=CCOc1cc(NC(=S)c2ccoc2C)ccc1Cl", "method": "nucleotide incorporation / radiometric", "mutations": "RT-V106A P225H", "result": "157"}
{"SMILES": "CCC1(c2ccc(COc3cccc(Cl)c3)cc2)Oc2ccccc2-n2cccc2C1=O", "method": "nucleotide incorporation / radiometric", "mutations": "RT-K103N", "result": "3"}
{"SMILES": "CCOCn1c(Cc2ccccc2)c(C(C)C)c(=O)[nH]c1=O", "method": "nucleotide incorporation / radiometric", "mutations": "RT-V106A P225H", "result": "219"}
{"SMILES": "CCN1c2ncc(CCOc3ccc(CC(C)C(=O)O)c4ccccc34)cc2C(=O)Nc2c(C)cc(Cl)nc21", "method": "nucleotide incorporation / radiometric", "mutations": "RT-V106A", "result": "1–10"}
{"SMILES": "COc1ccc(CSc2nc(Cc3c(Cl)cccc3Cl)c(C)c(=O)[nH]2)cc1OC", "method": "nucleotide incorporation / radiometric", "mutations": "RT-K103N", "result": ">333"}
{"SMILES": "Cc1cn([C@H]2C=C[C@@H](COP(=O)(O)OP(=O)(O)OP(=O)(O)O)O2)c(=O)[nH]c1=O", "method": "nucleotide incorporation / radiometric", "mutations": "RT-E138K", "result": "0.8"}
{"SMILES": "C=C(C)CCOCc1ccc(C2(CC)Oc3ccccc3-n3cccc3C2=O)cc1", "method": "nucleotide incorporation / radiometric", "mutations": "RT-Y188L", "result": ">3.57"}
{"SMILES": "Cc1occc1C(=S)Nc1ccc(Cl)c(/C=N/OC(C)(C)C)c1", "mutations": "RT-L100I", "result": "4.55"}
{"SMILES": "C=C(CC(=O)O)c1ccc(OCCc2cnc3c(c2)C(=O)N(C)c2cccnc2N3CC)c2ccccc12", "method": "nucleotide incorporation / radiometric", "mutations": "RT-V106A", "result": ">10"}
{"SMILES": "CCC1(c2ccc(COc3ccccc3)cc2)Oc2ccccc2-n2cccc2C1=O", "method": "nucleotide incorporation / radiometric", "mutations": "RT-K103N", "result": "2.6"}
{"SMILES": "CC(C)=CCOc1cc(NC(=S)c2ccoc2C)ccc1Cl", "mutations": "RT-L74V", "result": "0.63"}
{"SMILES": "CCC1(c2cccc(Cl)c2)Oc2ccccc2-n2cccc2C1=O", "method": "nucleotide incorporation / radiometric", "mutations": "RT-L100I", "result": "16.6"}
{"SMILES": "O=c1c2cccn2c2ccccc2n1CCNC(=S)Nc1ccc(Cl)cn1", "method": "nucleotide incorporation", "mutations": "RT-Y188L", "result": ">50"}